Drawing on PMC10869273, this text covers Kd for eleven substances.

The target in the first assay is HA H7 HK17 (A/Hong Kong/125/2017(H7N9)) (influenza A virus A/Hong Kong/125/2017(H7N9)). Description: BLI.
What is called Kd is the equilibrium constant for the complex coming apart. A high value points to lower affinity. On to MEDI8852 VH E65P Fab, for which the Kd is 0.1 nM.

Another assay deals with HA H4 Hubei (A/swine/Hubei/06/2009(H4N1)) (influenza A virus A/swine/Hubei/06/2009(H4N1)). Description: BLI. (BLI is a label-free optical method that tracks binding on a fibre tip over time.)
MEDI8852 VL T25A Fab returned a Kd of 1.7 nM.

In the case of MEDI8852 VH S44G Fab, the Kd was 0.66 nM. Same read-out and setting: to MEDI8852 VH D27F Fab belongs 1.1 nM; to MEDI8852 UCA VH K58S-V65P IgG, 80 nM; to MEDI8852 VH T53I Fab, 0.72 nM. MEDI8852 VH M117Y Fab returned an equilibrium dissociation constant (Kd) of 0.43 nM. MEDI8852 VL G95P Fab gave a Kd of 0.94 nM. MEDI8852 VH E65P Fab gave a Kd of 0.4 nM. This Kd lies about 2.3-fold lower than the previous one. MEDI8852 VL L29V Fab: the Kd came to 5.2 nM.

Take MEDI8852 VL T33L Fab: the Kd amounted to 3.6 nM. For MEDI8852 VH N74S Fab, the Kd was determined as 0.61 nM.
